The source of these data is US9587005B2 (priority 2010, dated 2017).

The nature of the data set: general procedure: Boc solid-phase peptide synthesis; MBHA resin, 100-180 mesh, 1% DVB, loading 0.7-1.0 mmol/g (Midwest Biotech); DEPBT/DIEA single couplings; DIC for acylation. To be noted: Analytical HPLC, Xterra C8 at 220 nm or Zorbax SB-C8 at 214 nm.

The same purity stands for every peptide and may come from a single statement.

For the substance “HaibQGTFTSDYSKYLDERAAQDFVQWLLDGGPSSGAPPPSC(S-palmityl)G-amide”, for the setting “lipidation step”, the “final HPLC purity” value came out at 90%+. Take “YaibQGTFTSDYSKYLDERAAQDFVQWLLDGGPSSGAPPPSK(K-γEC16,γEC12)G-NH2”: the “final HPLC purity” value (whole synthesis, scale of the general procedure 0.2 mmole) worked out at 90%+.
